A mixed list of measured activities; the numbers were collected in NIAID ChemDB.

All rows: tests in culture; agent: Vaccinia virus; endpoint: EC50

ECn is the concentration giving n% inhibition of infection, replication or growth. Conditions beyond the fields shown may differ between rows.

Nc1ncnc2c1ccn2[C@@H]1O[C@H](CO)[C@H](O)[C@H]1O ; cells: HeLa ; value: ≥10 µg/mL
NC(=O)c1ncn([C@@H]2O[C@H](CO)[C@@H](O)[C@H]2O)n1 ; strain: Copenhagen strain wild type ; cells: VERO 76 ; value: 21 µM
O=c1ccn(CC(CO)OCP(=O)(O)O)c(=O)[nH]1 ; cells: Primary rabbit kidney cells ; value: >400 µg/mL
Nc1ccn([C@@H]2C[C@H](CO)[C@@H](O)[C@H]2O)c(=O)n1 ; cells: PRK ; value: 15 µg/mL
Nc1ncc2ncn(CCOCP(=O)(O)O)c2n1 ; cells: Primary rabbit kidney cells ; value: >200 µg/mL
Nc1nc(NC2CC2)c2ncn([C@H]3C=C[C@@H](CO)C3)c2n1 ; cells: HFF ; value: >300 µM
Cc1cn([C@H]2C=C[C@@H](CO)O2)c(=O)[nH]c1=O ; cells: HFF ; value: >446 µM
Cc1cn([C@H]2C[C@H](O)[C@@H](CO)S2)c(=O)[nH]c1=O ; cells: E6SM ; value: 0.004 µM
C#Cc1c(C(N)=O)ncn1[C@@H]1O[C@H](CO)[C@@H](O)[C@H]1O ; cells: PRK ; value: 0.2 µg/mL
C[C@H](NP1(=O)CO[C@@H](Cn2ccc(N)nc2=O)CO1)C(=O)OCCc1ccccc1 ; strain: WR ; cells: HFF ; value: 15 µM
Nc1ccn(C[C@@H](CO)OCP(=O)(O)O)c(=O)n1 ; cells: Primary rabbit kidney cells ; value: 4 µg/mL
CCc1cn([C@H]2C[C@H](O)[C@@H](CO)S2)c(=O)[nH]c1=O ; cells: E6SM ; value: 0.45 µM
Nc1nc2c(ncn2CCOCP(=O)(O)O)c(=O)[nH]1 ; cells: Primary rabbit kidney cells ; value: 10 µg/mL
C=CSC[C@H]1O[C@@H](n2cnc3c(N)ncnc32)[C@H](O)[C@@H]1O ; cells: VERO ; value: 30 µM
NC(=O)c1ncn([C@@H]2O[C@H](CO)[C@@H](O)[C@H]2O)c1F ; cells: PRK ; value: 100 µg/mL
CC(C)c1nc(CN(C)C(=O)N[C@H](C(=O)N[C@@H](Cc2ccccc2)C[C@H](O)[C@H](Cc2ccccc2)NC(=O)OCc2cncs2)C(C)C)cs1 ; cells: HFF ; value: >300 µM
Nc1ncnc2c1ncn2C[C@@H](CO)OCP(=O)(O)O ; strain: Lederle ; cells: HEL ; value: 0.17 µg/mL
CCCCCCCCCCCCCCCCCCOCCOP(=O)(O)CO[C@H](CO)Cn1ccc(N)nc1=O ; strain: IHD ; cells: HFF ; value: 0.1 µM
O=c1cnn([C@@H]2O[C@H](CO)[C@@H](O)[C@H]2O)c(=O)[nH]1 ; cells: VERO 76 ; value: 4.3 µM
Nc1nc(N)c2ncn(CCOCP(=O)(O)O)c2n1 ; cells: Primary rabbit kidney cells ; value: 20 µg/mL
Nc1nccc2c1ncn2[C@@H]1C[C@H](CO)[C@@H](O)[C@H]1O ; strain: Copenhagen strain wild type ; cells: VERO 76 ; value: 20 µM
Cn1cc(NC(=O)c2cc(NC(=O)CN=C(N)N)cn2C)c(C(=O)NCCC(=N)N)c1 ; cells: PRK ; value: 2 µg/mL
Nc1ccn(C[C@@H](CO)OCP(=O)(O)O)c(=O)n1 ; cells: Primary rabbit kidney cells ; value: 4 µg/mL
Nc1ccn(C[C@@H](CO)OCP(=O)(O)O)c(=O)n1 ; strain: Copenhagen strain wild type ; cells: VERO 76 ; value: 19 µM
NC(=O)c1ncn([C@@H]2O[C@H](CO)[C@@H](O)[C@H]2O)n1 ; value: <50 µg/mL
Nc1nc(NC2CC2)c2ncn(CCOCP(=O)(O)O)c2n1 ; strain: NYC ; cells: HFF ; value: 12 µM
CCCCCCCCCCCCCCCCCCOCCOP1(=O)CO[C@@H](Cn2ccc(N)nc2=O)CO1 ; strain: Elstree ; cells: HFF ; value: 0.5 µM
Cn1cc(NC(=O)c2cc(NC(=O)CCCCCCCC(=O)Nc3cc(C(=O)Nc4cc(C(=O)NCCC(N)=[NH2+])n(C)c4)n(C)c3)cn2C)cc1C(=O)NCCC(N)=[NH2+] ; cells: VERO ; value: 55 µg/mL
CCc1cn([C@H]2C[C@H](O)[C@@H](CO)O2)c(=O)[nH]c1=O ; cells: E6SM ; value: 7.5 µM
Cc1c(O)cccc1C(=O)N[C@@H](CSc1ccccc1)[C@H](O)CN1C[C@H]2CCCC[C@H]2C[C@H]1C(=O)NC(C)(C)C ; cells: HFF ; value: >300 µM
CC(C)(C)C(=O)OCOP(=O)(COCCn1cnc2c(N)ncnc21)OCOC(=O)C(C)(C)C ; strain: NYC ; cells: HFF ; value: 23 µM
O=c1[nH]c(=O)n([C@H]2C[C@H](O)[C@@H](CO)O2)cc1C1CCCC1 ; cells: E6SM ; value: 810 µM
Nc1ncc2ncn(CCOCP(=O)(O)O)c2n1 ; cells: Primary rabbit kidney cells ; value: >200 µg/mL
O=c1[nH]c(=O)n([C@H]2C[C@H](O)[C@@H](CO)O2)cc1/C=C/Br ; cells: E6SM ; value: 5.8 µM
CCCCOC(=O)C(C)NP(=O)(COCCn1cnc2c(NC3CC3)nc(N)nc21)NC(C)C(=O)OCCCC ; strain: WR ; cells: HFF ; value: 0.12 µM
O=c1ccn([C@H]2C[C@H](O)[C@@H](CO)O2)c(=O)[nH]1 ; cells: E6SM ; value: >2000 µM
Nc1ncnc2c1ncn2[C@@H]1C=C(CO)[C@@H](O)[C@H]1O ; cells: PRK ; value: 0.03 µg/mL
Nc1ncnc2c1ncn2C[C@@H](CO)OCP(=O)(O)O ; strain: WR ; cells: HFF ; value: 7.6 µM
Nc1ccn(C[C@H]2COP(=O)(O)CO2)c(=O)n1 ; strain: Elstree ; cells: HFF ; value: 41.6 µM
O=c1[nH]cnc2c1ncn2C[C@@H](CO)OCP(=O)(O)O ; cells: Primary rabbit kidney cells ; value: >400 µg/mL
Cn1cc(NC(=O)c2cc(NC(=O)CCCC(=O)Nc3cc(C(=O)Nc4cc(C(=O)NCCC(N)=[NH2+])n(C)c4)n(C)c3)cn2C)cc1C(=O)NCCC(N)=[NH2+] ; cells: VERO ; value: 110 µg/mL
CCCCCCCCCCCCCCCCOCCCOP(=O)(O)CO[C@H](CO)Cn1ccc(N)nc1=O ; strain: IHD ; cells: HFF ; value: 0.2 µM
Nc1ccn(C[C@@H](CO)OCP(=O)(O)O)c(=O)n1 ; cells: BSC ; value: 5 µg/mL
COc1c(C)c2c(c(O)c1C/C=C(\C)CCC(=O)O)C(=O)OC2 ; cells: VERO 76 ; value: 2.1 µM
O=c1[nH]c(=O)n([C@H]2C[C@H](O)[C@@H](CO)S2)cc1C1CC1 ; cells: E6SM ; value: 1.3 µM
O=c1[nH]cnc2c1ncn2CC(CO)OCP(=O)(O)O ; cells: Primary rabbit kidney cells ; value: >400 µg/mL
Nc1nc(N)c2ncn(CCOCP(=O)(O)O)c2n1 ; strain: NYC ; cells: HFF ; value: 122 µM
NC(=O)c1csc([C@@H]2O[C@H](CO)[C@@H](O)[C@H]2O)n1 ; cells: VERO ; value: 45 µg/mL
Nc1ncnc2c1ncn2C[C@H](O)CO ; cells: VERO ; value: 20 µg/mL
CCCc1cn([C@H]2C[C@H](O)[C@@H](CO)S2)c(=O)[nH]c1=O ; cells: E6SM ; value: 170 µM
Nc1nccc2c1ncn2[C@@H]1CC[C@@H](O)[C@H]1O ; cells: L929 ; value: 0.03 µg/mL

For reference, 7 entries again:

{"smiles": "Cn1cc(NC(=O)c2cc(NC(=O)CN=C(N)N)cn2C)c(C(=O)NCCC(=N)N)c1", "cells": "PRK", "value": "2 µg/mL"}
{"smiles": "Nc1nc2c(ncn2CCOCP(=O)(O)O)c(=O)[nH]1", "cells": "Primary rabbit kidney cells", "value": "10 µg/mL"}
{"smiles": "CC(C)c1nc(CN(C)C(=O)N[C@H](C(=O)N[C@@H](Cc2ccccc2)C[C@H](O)[C@H](Cc2ccccc2)NC(=O)OCc2cncs2)C(C)C)cs1", "cells": "HFF", "value": ">300 µM"}
{"smiles": "NC(=O)c1ncn([C@@H]2O[C@H](CO)[C@@H](O)[C@H]2O)c1F", "cells": "PRK", "value": "100 µg/mL"}
{"smiles": "Cc1cn([C@H]2C=C[C@@H](CO)O2)c(=O)[nH]c1=O", "cells": "HFF", "value": ">446 µM"}
{"smiles": "NC(=O)c1ncn([C@@H]2O[C@H](CO)[C@@H](O)[C@H]2O)n1", "value": "<50 µg/mL"}
{"smiles": "CCc1cn([C@H]2C[C@H](O)[C@@H](CO)S2)c(=O)[nH]c1=O", "cells": "E6SM", "value": "0.45 µM"}